A mixed list of measured activities; the numbers were collected in NIAID ChemDB.

All rows: tests in culture; agent: Pneumocystis carinii

Conditions beyond the fields shown may differ between rows.

structure,setting,cell line,endpoint,method,value
NC(=NCCCO)c1ccc(N2CCCN(c3ccc(C(N)=NCCCO)cc3)CC2)cc1,,,EC50,,>1 µM
NCCCNCCCCCCCNCCCN,,,EC50,,>30 µM
c1cc(N2CCN(c3ccc(C4OCCO4)cc3)CC2)ccc1C1OCCO1,,,EC50,ATP,>100 µg/mL
CC(C)CN(C[C@@H](O)[C@H](Cc1ccccc1)NC(=O)O[C@H]1CCOC1)S(=O)(=O)c1ccc(N)cc1,,,EC50,,<0.32 µM
N#Cc1ccc(N2CCN(c3ccc(C#N)cc3)CC2)cc1,,,EC50,ATP,>100 µg/mL
N=C(N)c1ccc(NC(=O)CCCCC(=O)Nc2ccc(C(=N)N)cc2)cc1,,A549,EC50,ATP,0.001 µg/mL
NC(=NCC1CCCC1)c1ccc(N2CCCN(c3ccc(C(N)=NCC4CCCC4)cc3)CC2)cc1,,,EC50,,>1 µM
N=C(N)c1ccc(OC/C=C/COc2ccc(C(=N)N)cc2)cc1,,,EC50,,<0.2 µM
CCc1c(O)c(=O)ccn1CCOC,7 d,Human fibroblasts,EC50,,<72 µM
CCCCCCCCCCCCN=C(N)c1ccc(N2CCN(c3ccc(C(N)=NCCCCCCCCCCCC)cc3)CC2)cc1,,,EC50,ATP,0.537 µg/mL
Cc1[nH]c2nc(N)[nH]c(=O)c2c1CSc1ccncc1,,,EC50,,<32 µM
CC(=O)N(O)CCCCCNC(=O)CCC(=O)N(O)CCCCCNC(=O)CCC(=O)N(O)CCCCCN,,,EC50,,<50 µM
O=C1C(=O)c2ccccc2C(O)=C1C1CCC(c2ccc(Cl)cc2)CC1,,,MIC,,1 µg/mL
CCCCCCCCCCN=C(N)c1ccc(N2CCN(c3ccc(C(N)=NCCCCCCCCCC)cc3)CC2)cc1,,,EC50,ATP,0.723 µg/mL
CC(=O)N(O)CCCCCNC(=O)CCC(=O)N(O)CCCCCNC(=O)CCC(=O)N(O)CCCCCN,7 d,Human fibroblasts,EC50,,<7.5 µM
N=C(N)c1ccc(OCCCCOc2ccc(C(=N)N)cc2)cc1,,,EC50,,<0.2 µM
CC(=O)N1CCN(c2ccc(OC[C@H]3CO[C@](Cn4ccnc4)(c4ccc(Cl)cc4Cl)O3)cc2)CC1,10 d,WI-38,EC50,,<10 µg/mL
COc1cc(NCc2ccc3nc(N)nc(N)c3c2C)cc(OC)c1OC,,,EC50,,10 µg/mL
CCCCCCCCN=C(N)c1ccc(N2CCN(c3ccc(C(N)=NCCCCCCCC)cc3)CC2)cc1,,,EC50,ATP,0.18 µg/mL
C(=C\COc1ccc(C2=NCCN2)cc1)/COc1ccc(C2=NCCN2)cc1,,,EC50,,<0.2 µM
CCCCCN=C(N)c1ccc(N2CCN(c3ccc(C(N)=NCCCCC)cc3)CC2)cc1.Cl.Cl,,A549,EC50,ATP,0.001 µg/mL
COc1cc(NC(C)CCCN2C(=O)[C@H](C)NC2(C)C)c2ncccc2c1,72 h,,EC50,,226 µM
O=Cc1ccc(N2CCN(c3ccc(C=O)cc3)CC2)cc1,,,EC50,ATP,>100 µg/mL
CCC(C)n1ncn(-c2ccc(N3CCN(c4ccc(OC[C@H]5CO[C@](Cn6cncn6)(c6ccc(Cl)cc6Cl)O5)cc4)CC3)cc2)c1=O,10 d,WI-38,EC50,,>10 µg/mL
CC(C)CN=C(N)c1ccc(N2CCCN(c3ccc(C(N)=NCC(C)C)cc3)CC2)cc1,,,EC50,,>1 µM
NC(=NCc1ccccc1)NC(=O)c1nc(Cl)c(N)nc1N,,,EC50,,>100 µM
O=C(Cn1ccnc1[N+](=O)[O-])NCCO,10 d,WI-38,EC50,,>10 µg/mL
c1ccc2[nH]c(-c3ccc(N4CCN(c5ccc(-c6nc7ccccc7[nH]6)cc5)CC4)cc3)nc2c1,,,EC50,ATP,0.711 µg/mL
CCc1c(O)c(=O)ccn1CC,7 d,Human fibroblasts,EC50,,>18 µM

An empty or dashed field is not shown. ECn: concentration that inhibits the pathogen or its effect by n%.